Legend:
[1] = system: NIH/3T3 fibroblasts; experiment: Cytotoxicity in mammalian cells (sulforhodamine B); format: cell-based; details: IC50 in NIH/3T3 fibroblasts/IC50 on intracellular amastigotes
Protocol: The cytotoxic effect of compounds 1–7 was evaluated on NIH/3T3 fibroblasts obtained from the Rio de Janeiro Cell Bank (Duque de Caxias, Brazil). Fibroblasts were seeded at […] in 96-well plates. After 24 h of fixation, cells were incubated for 48 h with 1–7 at 2.5–250 µg·mL^−1, in three replicates. Cell growth was evaluated using the sulforhodamine B colorimetric method, and the optical with absorbances read on the PT-READER microplate instrument (Spectramax 190, Molecular Devices, Sunnyvale, CA, USA) at 540 nm. […] The growth inhibition percentage-GI (%) of each test sample was calculated in Microsoft Office Excel 2007 software. IC50 was determined graphically in the Microcal Origin Version 6.00 program. The selectivity index (SI) was calculated as the ratio between the cytotoxicity on cells (IC50) and the activity on the parasite forms (IC50).

[2] = system: L. (L.) amazonensis promastigote forms; experiment: In vitro antileishmanial activity on promastigote forms (MTT); format: cell-based, Leishmania (Leishmania) amazonensis; details: ratio of IC50 values

SMILES: CC(=O)C1=C([O-])C=C2Oc3c(C(C)=O)c(O)c(C)c(O)c3C2(C)C1=O.CC(=O)C1=C([O-])C=C2Oc3c(C(C)=O)c(O)c(C)c(O)c3C2(C)C1=O.CC(=O)C1=C([O-])C=C2Oc3c(C(C)=O)c(O)c(C)c(O)c3C2(C)C1=O.O.O.O.[Eu+3] (stereo not shown) [EuL3·3H2O 4]
- SI (Ama.) ([1]; listed as EuL3·3H2O): approximately 7.0

SMILES: CC(=O)C1=C([O-])C=C2Oc3c(C(C)=O)c(O)c(C)c(O)c3C2(C)C1=O.CC(=O)C1=C([O-])C=C2Oc3c(C(C)=O)c(O)c(C)c(O)c3C2(C)C1=O.CC(=O)C1=C([O-])C=C2Oc3c(C(C)=O)c(O)c(C)c(O)c3C2(C)C1=O.O.O.O.[Nd+3] (stereo not shown) [NdL3·3H2O 5]
- SI (Ama.) ([1]; listed as NdL3·3H2O): approximately 7.0

SMILES: CC(=O)C1=C([O-])C=C2Oc3c(C(C)=O)c(O)c(C)c(O)c3C2(C)C1=O.CC(=O)C1=C([O-])C=C2Oc3c(C(C)=O)c(O)c(C)c(O)c3C2(C)C1=O.CC(=O)C1=C([O-])C=C2Oc3c(C(C)=O)c(O)c(C)c(O)c3C2(C)C1=O.O.O.[Tb+3] (stereo not shown) [TbL3·2H2O 6]
- activity on promastigotes, times higher than SAU 1 [2]: almost a thousand times higher
- activity on promastigotes, times higher than amphotericin B [2]: 63 times

Reference: publication PMC10779311, “Antileishmanial Activity, Toxicity and Mechanism of Action of Complexes of Sodium Usnate with Lanthanide Ions: Eu(III), Sm(III), Gd(III), Nd(III), La(III) and Tb(III)” (International Journal of Molecular Sciences, 2023)
